Compound potency records, mixed from different reports. Data source: NIAID ChemDB in PubChem.

Shared fields: whole-cell or culture tests; agent: HIV-1; endpoint: EC50

An empty or dashed field is not shown.

SMILES | cells | mutations | strain or isolate | value
O=C(O)C(=O)/C=C(\O)c1cc(Cc2cccc(Cl)c2)cn(Cc2ccccc2F)c1=O | MAGI |  |  | 1.9 µM
COCc1nc(Nc2ccc(C#N)cc2)nc(Nc2c(C)cc(/C=C/C#N)cc2C)c1C(=O)NCCc1cccs1 | MT4 CMV-EGFP |  | IIIB | 0.0145 µM
CC[C@H](C)[C@H](NC(=O)OC(C)(C)C)C(=O)NNc1ccn([C@H]2CC[C@@H](CO)O2)c(=O)n1 | MT-4 |  |  | >100 µM
C=CCNC(=O)c1c(COC)nc(Nc2ccc(C#N)cc2)nc1Nc1c(C)cc(/C=C/C#N)cc1C | MT4 CMV-EGFP |  | IIIB | 0.00219 µM
O=C1Nc2ccc(F)cc2C(C#Cc2ccsc2)(C(F)(F)F)O1 |  |  |  | <0.00255 µM
C[C@H](Cn1cnc2c(N)ncnc21)OCP(=O)(O)O | TZM-bl |  |  | 6.1 µM
COCCNC(=O)c1c(COC)nc(Nc2ccc(C#N)cc2)nc1Nc1c(C)cc(/C=C/C#N)cc1C | MT4 CMV-EGFP |  | MDR | 0.000363 µM
O=C(O)C(=O)/C=C(\O)c1cc(Cc2ccc(F)cc2)cn(Cc2ccc(F)cc2)c1=O | MAGI |  |  | 0.8 µM
CCCOC12CS(=O)(=O)OC13[C@@H](CN2)O[C@@H](n1cc(C)c(=O)[nH]c1=O)[C@@H]3O[Si](C)(C)C(C)(C)C | CEM |  | IIIB | 1.4 µM
Cc1cc(/C=C/C#N)cc(C)c1Nc1nc(Nc2ccc(C#N)cc2)ncc1C(O)n1ccnc1 | MT-4 |  | K103N + Y181C | 0.02291 µM
O=C1Nc2ccc(Cl)cc2C(C#Cc2ccoc2)(C(F)(F)F)O1 |  | RT-K103N |  | <0.1522 µM
COCc1nc(Nc2ccc(C#N)cc2)nc(Nc2c(C)cc(/C=C/C#N)cc2C)c1C(=O)NCC1CCCO1 | MT4 CMV-EGFP |  | K103N + Y181C | 0.0295 µM
Cc1cccc(Cn2cc(Cc3ccc(F)cc3F)cc(/C(O)=C/C(=O)C(=O)O)c2=O)c1 | MAGI |  |  | 0.7 µM
O=C1Nc2ccc(Cl)cc2C(OCC2CC2)(C(F)(F)F)O1 |  | RT-K103N |  | <0.989 µM
COc1ccccc1C(O)c1cnc(Nc2ccc(C#N)cc2)nc1Nc1c(C)cc(/C=C/C#N)cc1C | MT-4 |  | PSI (IIIB) | 166 µM
CC[C@H](C)[C@H]([NH3+])C(=O)NNc1ccn([C@H]2CC[C@@H](CO)O2)c(=O)n1 | MT-4 |  |  | >100 µM
O=C(O)C(=O)/C=C(\O)c1cc(Cc2cccc(Cl)c2F)cn(Cc2cccc(Cl)c2)c1=O | MAGI |  |  | 1.5 µM
Cc1cn([C@@H]2O[C@@H]3CN[C@@]4(OCc5ccccc5)CS(=O)(=O)O[C@@]34[C@H]2O[Si](C)(C)C(C)(C)C)c(=O)[nH]c1=O | MT-4 |  | IIIB | >10 µM
Cc1cc(/C=C/C#N)cc(C)c1Nc1nc(Nc2ccc(C#N)cc2)ncc1C(O)C(C)C | MT-4 |  | MDR | 7.59 µM
CC#CCOC1(C(F)(F)F)OC(=O)Nc2ccc(Cl)cc21 |  | RT-K103N |  | <0.31 µM
Cc1cc(/C=C/C#N)cc(C)c1Nc1nc(Nc2ccc(C#N)cc2)ncc1C(O)OCCO | MT-4 |  | L100I + K103N | 0.00912 µM
O=C(O)C(=O)/C=C(\O)c1cc(Cc2ccc(F)cc2)cn(Cc2cccc(F)c2F)c1=O | MAGI |  |  | 0.7 µM
COP(=O)(c1cc(C)cc(CCC#N)c1)c1c(C(N)=O)[nH]c2ccc(Cl)c(F)c12 | MT-2 |  | BH10 | 0.0009 µM
C=CCOC1(C(F)(F)F)OC(=O)Nc2ccc(F)c(F)c21 |  | RT-K103N |  | <1.617 µM
COCc1nc(Nc2ccc(C#N)cc2)nc(Nc2c(C)cc(/C=C/C#N)cc2C)c1C(=O)NCc1cccnc1 | MT4 CMV-EGFP |  | MDR | 0.0851 µM
Cc1cc(/C=C/C#N)cc(C)c1Nc1nc(Nc2ccc(C#N)cc2)ncc1C(O)OCc1cccnc1 | MT-4 |  | PSI (IIIB) | 437 µM
Cc1cn([C@@H]2O[C@@H]3CN[C@@]4(OCCO)CS(=O)(=O)O[C@@]34[C@H]2O)c(=O)[nH]c1=O | MT-4 |  | IIIB | >250 µM
COC[C@@H](c1ccc(C(F)(F)F)cc1)N1CCN(C2(C)CCN(C(=O)c3c(C)ncnc3C)CC2)C[C@@H]1C | TZM-bl | G514V | R14/S | 0.0034 µM
COC(O)c1cnc(Nc2ccc(C#N)cc2)nc1Nc1c(C)cc(/C=C/C#N)cc1C | MT-4 |  | MDR | 240 µM
CCO[C@]12CS(=O)(=O)O[C@@]13[C@@H](CN2)O[C@@H](n1ccc(=O)[nH]c1=O)[C@@H]3O[Si](C)(C)C(C)(C)C | MT-4 |  | IIIB | >50 µM
O=C(O)C(=O)/C=C(\O)c1cc(Cc2ccccc2)cn(Cc2cccc(F)c2)c1=O | MAGI |  |  | 2 µM
O=C1Nc2ccc(F)cc2C(C#Cc2ccccn2)(C(F)(F)F)O1 |  |  |  | <0.01219 µM
Cc1cc(F)ccc1Cc1cc(/C(O)=C/C(=O)C(=O)O)c(=O)n(Cc2ccccc2F)c1 | MAGI |  |  | 1.3 µM
COCc1nc(Nc2ccc(C#N)cc2)nc(Nc2c(C)cc(/C=C/C#N)cc2C)c1C(=O)NCC(OC)OC | MT4 CMV-EGFP |  | L1001+K103N | 0.0417 µM
CC(C)=CCOC1(C(F)(F)F)OC(=O)Nc2ccc(F)cc21 |  | RT-K103N |  | <0.107 µM
COCc1nc(Nc2ccc(C#N)cc2)nc(Nc2c(C)cc(/C=C/C#N)cc2C)c1C(=O)NCCc1ccccn1 | MT4 CMV-EGFP |  | K103N + Y181C | 0.0151 µM
O=C1Nc2ccc(F)cc2C(C#Cc2cccs2)(C(F)(F)F)O1 |  | RT-K103N |  | <0.369 µM

Again, the opening 3 rows:

SMILES | cells | mutations | strain or isolate | value
O=C(O)C(=O)/C=C(\O)c1cc(Cc2cccc(Cl)c2)cn(Cc2ccccc2F)c1=O | MAGI |  |  | 1.9 µM
COCc1nc(Nc2ccc(C#N)cc2)nc(Nc2c(C)cc(/C=C/C#N)cc2C)c1C(=O)NCCc1cccs1 | MT4 CMV-EGFP |  | IIIB | 0.0145 µM
CC[C@H](C)[C@H](NC(=O)OC(C)(C)C)C(=O)NNc1ccn([C@H]2CC[C@@H](CO)O2)c(=O)n1 | MT-4 |  |  | >100 µM

ECn: concentration that inhibits the pathogen or its effect by n%. Neighbouring rows are from separate reports.